Results of unrelated studies side by side (data: NIAID ChemDB).

All rows: whole-cell or culture tests; agent: Mycobacterium tuberculosis

Blank or dashed fields: not listed here. A number after MIC or MFC names an inhibition level or a share of isolates. Zone: diameter of growth inhibition. a–b is a range or a potency band. Lines come from different laboratories, so protocols vary. Inhibition is in % at the dose shown (toxicity tests: loss of growth or viability). ECn: concentration that inhibits the pathogen or its effect by n%. MIC bound: limit read from a one-dose screen.

| SMILES | read by | tested at | changes | endpoint | strain or isolate | value |
|---|---|---|---|---|---|---|
| C1=C(c2nc(-c3cccnc3)no2)c2ccccc2C12CCN(CC1CCCO1)CC2 | resazurin | - | Rifampicin-resistant | MIC | 19000 | 1.56 µM |
| O=C1Nc2ccc([N+](=O)[O-])cc2[C@]12N1CSC[C@H]1[C@H](c1ccc(F)cc1)[C@]21Cc2ccccc2C1=O | agar | - | - | MIC99 | H37Rv | 3.1 µM |
| COc1cc(Cc2cnc(N)nc2N)cc(OC)c1OCc1ccc(S(=O)(=O)c2ccc(N)cc2)cc1 | - | - | - | MIC | H37Rv | >61.4 µM |
| CCOC(=O)C1=C(NC)OC/C1=N/NC(=O)c1ccccc1O | BACTEC | - | - | MIC bound | H37Rv | >12.5 µg/mL |
| O=C(NCc1cnc(N2CCN(S(=O)(=O)C(F)(F)F)C=N2)c(F)c1)c1c(C(F)(F)F)nc2ncc(Cl)cn12 | GFP | - | - | EC50 | - | 0.5 µM |
| COc1ccc(/C=N/Nc2ccccn2)cc1OC | BACTEC | 12.5 µg/mL | - | inhibition | H37Rv | 14% |
| COc1ccc(-c2noc(C3=CC4(CCN(CC5CCCO5)CC4)c4ccccc43)n2)cc1 | turbidity | - | Spiroindene-resistant | MIC | TB365 | 3 µM |
| CCOC(=O)C1=NN(c2ccccc2)C(=O)C1N=Nc1ccc(S(=O)(=O)Nc2nccc(C)n2)cc1 | resazurin | 6.25 µg/mL | - | inhibition | H37Rv | 21% |
| COc1cc(Cc2cnc(N)nc2N)cc(OC)c1OCCCNc1ccc(S(=O)(=O)c2ccc([N+](=O)[O-])cc2)cc1 | - | - | - | MIC | H37Rv | 3.6 µM |
| O=c1c2ccccc2sc2c(CO)ccc(NCCN3CCCCC3)c12 | BACTEC | - | - | MIC bound | H37Rv | ≤12.5 µg/mL |
| Cc1ccc(-c2n[nH]c(=O)n2-n2c(C)ccc2C)cc1 | - | - | - | MIC | V.C | 10.33 µg/mL |
| CCCCCCCSc1cc(C(N)=O)cc(Br)n1 | - | - | - | MIC | H37Rv | 250 µM |
| O=C1Nc2ccccc2[C@]12N1CSC[C@H]1[C@H](c1cccc(Cl)c1Cl)[C@]21Cc2ccccc2C1=O | agar | - | - | MIC | H37Rv | 12.3 µM |
| CCC(C)N(C(=S)NC)c1ccc(F)c(Cl)c1 | visual reading | - | - | MIC | - | >400 µg/mL |
| Cc1cnc(C(=O)O)c(N)n1 | BACTEC | 12.5 µg/mL | - | inhibition | H37Rv | 5% |
| Cc1ccc(C(=O)Oc2ccc(/C=C3\CCCCC3=O)cc2)cc1 | - | 12.5 µg/mL | - | inhibition | H37Rv | 58% |
| CC(=O)OC1COC([n+]2cccc(C(N)=O)c2)C(OC(C)=O)C1OC(C)=O.[Br-] | BACTEC | 12.5 µg/mL | - | inhibition | H37Rv | 4% |
| O=[N+]([O-])c1ccc(-c2ccon2)o1 | - | - | - | MIC | - | 1 µg/mL |
| CCOC(=O)/C(N=Nc1ccc(C(=O)N/N=C/c2ccc([N+](=O)[O-])o2)cc1)=C(\C)O | - | - | - | EC50 | H37Rv | <12.5 µg/mL |
| CCOc1ccc2nc(NC(=O)CSc3nnc(-c4ccc5ncccc5c4)o3)sc2c1 | agar | - | - | MIC | H37Rv | 12.5 µg/mL |
| CCc1nc2ccc(F)cn2c1C(=O)NCc1ccc(N2CCN(S(=O)(=O)C(F)(F)F)C(C3CC3)=N2)cc1 | GFP | - | - | EC50 | - | 0.011 µM |
| O=C(O)C(=NNc1ccc(C(=O)N/N=C/c2ccc([N+](=O)[O-])o2)cc1)C(=O)O | - | - | - | MIC | H37Rv | >6.25 µg/mL |
| CO[C@H]1/C=C/O[C@@]2(C)Oc3c(C)c(O)c4c(O)c(c(/C=N/N5CCN(C)CC5)c(O)c4c3C2=O)NC(=O)/C(C)=C\C=C\[C@H](C)[C@H](O)[C@@H](C)[C@@H](O)[C@@H](C)[C@H](OC(C)=O)[C@@H]1C | resazurin | - | Rifampicin-resistant | MIC | 19000 | >4.8 µM |
| CCCCCCCSc1cc(C(N)=S)cc(Br)n1 | - | - | - | MIC | H37Rv | 60 µM |
| COc1ccc(Cc2cnc(N)nc2N)cc1OCCNc1ccc(S(=O)(=O)c2ccc(N)cc2)cc1 | - | - | - | MIC | H37Rv | 11.5 µM |
| N#Cc1c(-c2ccc([N+](=O)[O-])o2)noc1N | - | - | - | MIC | - | 3 µg/mL |
| O=C(/N=C1\N=Nc2nc(C(C(=O)c3cccc([N+](=O)[O-])c3Cl)c3nc4n(c3O)/C(=N/C(=O)Nc3ccc(Cl)cc3)N=N4)c(O)n21)Nc1ccc(Cl)cc1 | resazurin | 6.25 µg/mL | - | inhibition | H37Rv | 4% |
| COc1ccc([C@H]2[C@@H]3CSCN3[C@@]3(C(=O)Nc4ccc([N+](=O)[O-])cc43)[C@@]23Cc2ccccc2C3=O)cc1 | agar | - | - | MIC99 | H37Rv | 24.3 µM |
| CCOC(=O)c1c(-c2ccc([N+](=O)[O-])o2)noc1N | - | - | - | MIC | - | 30 µg/mL |
| CCCc1cc(-c2nc(-c3ccc(OCCN4CCCC4)cc3)cs2)ccn1 | turbidity | - | - | MIC80 | H37Rv | 8 µg/mL |
| O=C(/C=C/c1ccccc1)Oc1ccc(/C=C2\CCC/C(=C\c3ccc(OC(=O)/C=C/c4ccccc4)cc3)C2=O)cc1 | - | 12.5 µg/mL | - | inhibition | H37Rv | 0% |
| COC(=O)C[C@@](O)(CCC(C)(C)O)C(=O)O[C@@H]1C(OC)=C[C@]23CCCN2CCc2cc4c(cc2[C@@H]13)OCO4 | BACTEC | 12.5 µg/mL | - | inhibition | H37Rv | 2% |
| O=C1Nc2ccc(Cl)cc2[C@]12N1CSC[C@H]1[C@H](c1ccc([N+](=O)[O-])cc1)[C@]21Cc2ccccc2C1=O | agar | - | - | MIC99 | H37Rv | 12.1 µM |
| CNC(=S)N(c1ccc(F)c(Cl)c1)C(C)c1cccs1 | visual reading | - | - | MIC | - | 200 µg/mL |
| CC[C@@H](C)[C@H](OC(=O)/C=C/c1ccccc1)[C@H](C)[C@H](O)C/C=C/C=C/C(N)=O | - | - | - | MIC | - | 25 µg/mL |
| CCCCCCCCSc1cc(C(N)=S)cc(Br)n1 | - | - | - | MIC | H37Rv | 125 µM |
| COc1ccc(C(=O)Oc2ccc(/C=C3\CCCC(CN(C)C)C3=O)cc2)cc1 | - | 12.5 µg/mL | - | inhibition | H37Rv | 100% |
| O=C1Nc2ccccc2[C@]12N1CSC[C@H]1[C@H](c1ccc(Br)cc1)[C@]21Cc2ccccc2C1=O | agar | - | - | MIC99 | H37Rv | 24.2 µM |
| C/C(O)=C(\C=NC(=S)c1ccncc1)C(=O)Nc1ccccc1 | resazurin | - | - | MIC bound | H37Rv | >6.25 µg/mL |
| CN[C@@H]1[C@H](O[C@H]2[C@H](O[C@H]3[C@H](O)[C@@H](O)[C@H](N=C(N)N)[C@@H](O)[C@@H]3N=C(N)N)O[C@@H](C)[C@]2(O)C=O)O[C@@H](CO)[C@H](O)[C@H]1O | - | - | - | MIC | 3660/83 (streptomycin-resistant) | 25–50 µg/mL |
| CC1COc2c(N3CCN(C)CC3)c(F)cc3c(=O)c(C(=O)O)cn1c23 | resazurin | - | Drug-resistant | MIC | Beijing (E-47/94) | 0.14 µM |
| COc1cc(Cc2cnc(N)nc2N)cc(OC)c1OCCNc1ccc(S(=O)(=O)c2ccc(N)cc2)cc1 | - | - | - | MIC | H37Rv | 32.7 µM |
| O=[N+]([O-])c1ccc(C2=NOC(c3ccccc3)(N3CCCCC3)C2)o1 | - | - | - | MIC | - | 10 µg/mL |
| CC(=O)/C(N=Nc1ccc(C(=O)N/N=C/c2ccc([N+](=O)[O-])o2)cc1)=C(/O)c1ccccc1 | - | - | - | MIC | H37Rv | <12.5 µg/mL |
| CCCCCCCSc1cc(C(N)=O)cc(SCCCCCC)n1 | - | - | - | MIC | H37Rv | 1000 µM |
| Fc1ccc(N(Cc2ccco2)C(=S)Nc2ccccc2)cc1Cl | visual reading | - | - | MIC | - | 50 µg/mL |
| O=C(CSc1nnc(-c2ccc3ncccc3c2)o1)Nc1nc2ccc(F)cc2s1 | agar | - | - | MIC | H37Rv | 12.5 µg/mL |
| O=C1Nc2ccccc2[C@]12N1CSC[C@H]1[C@H](c1ccc(F)cc1)[C@]21Cc2ccccc2C1=O | agar | - | - | MIC99 | H37Rv | 13.7 µM |
| Cc1ccc(-c2noc(C3=CC4(CCN(CC5CCCO5)CC4)c4ccccc43)n2)cn1 | resazurin | - | Drug-resistant | MIC | D-211 | 1.56 µM |
| CCCCCCSc1cc(C(N)=S)cc(Cl)n1 | - | - | - | MIC | H37Rv | 60 µM |
| O=C(NCc1ccc(N2CCN(S(=O)(=O)C(F)(F)F)C=N2)c(F)c1)c1c(C(F)F)nc2cnccn12 | GFP | - | - | EC50 | - | 0.064 µM |
| O=C1OC(C(O)CO)/C(=N/O)C1O | BACTEC | - | - | MIC bound | H37Rv | >12.5 µg/mL |
| CNC(=S)N(c1ccc(Cl)c(Cl)c1)C1CCCCC1 | visual reading | 1000 µg/mL | - | zone | - | 12.07 mm |
| CCCCCCSc1cc(C(N)=S)cc(SCCCCC)n1 | - | - | - | MIC | H37Rv | 30 µM |
| CNC(=S)N(c1ccc(F)c(Cl)c1)C(C)C | visual reading | - | - | MIC | - | >400 µg/mL |
| NC(=O)c1c(N)nn2c(-c3ccccc3)cc(-c3ccccc3)cc12 | resazurin | 6.25 µg/mL | - | inhibition | H37Rv | 95% |
| Cc1ccc(/C=C/C(=O)Oc2ccc(/C=C3\CCCCC3=O)cc2)cc1 | - | 12.5 µg/mL | - | inhibition | H37Rv | 3% |
| CC1COc2c(N3CCN(C)CC3)c(F)cc3c(=O)c(C(=O)O)cn1c23 | - | - | - | MIC | 469 (streptomycin isoniazid rifampicin-resistant) | 4 µg/mL |
| CNC(=S)N(Cc1ccco1)c1ccc(Cl)c(Cl)c1 | visual reading | 1000 µg/mL | - | zone | - | 14.82 mm |
| CC(=O)O[C@@H]1C[C@H]2O[C@@H]3C=C(C)CC[C@]3(C)[C@]1(C)[C@]21CO1 | BACTEC | 12.5 µg/mL | - | inhibition | H37Rv | 13% |
| O=[N+]([O-])c1ccc(-c2nocc2-c2ccccc2)o1 | - | - | - | MIC | - | 3 µg/mL |
| [2H]C([2H])([2H])OC(=O)N/C=C/CCCc1cc(O)c(C(=O)/C(C)=C/c2cnc(Oc3ccc(-c4ccccc4)cc3)s2)c(=O)o1 | fluorescence | - | - | MIC | H37Rv | >50 µg/mL |
| O=C(CSc1nnc(-c2ccc3ncccc3c2)o1)Nc1ccc([N+](=O)[O-])cc1 | agar | - | - | MIC | H37Rv | 62.5 µg/mL |
| Cc1cnc(/C=N/NC(N)=S)cn1 | - | - | - | MIC | TAC-R | >12.5 µg/mL |
| CC(c1cccs1)N(C(=S)Nc1ccccc1)c1ccc(F)c(Cl)c1 | visual reading | 1000 µg/mL | - | zone | - | 19.85 mm |
| O=[N+]([O-])c1cnc(Sc2cncc[n+]2[O-])s1 | resazurin | - | - | MIC bound | H37Rv | <6.25 µg/mL |
| CN(C)CC1CCC/C(=C\c2ccc(OC(=O)c3ccc(Cl)cc3)cc2)C1=O | - | - | - | EC50 | H37Rv | <12.5 µg/mL |
| Cn1cnc([N+](=O)[O-])c1C(N)=O | resazurin | - | - | MIC bound | - | >6.25 µg/mL |
| Cc1[nH]n(-c2ccc([N+](=O)[O-])cc2)c(=O)c1N=Nc1ccc(-c2n[nH]c(=S)o2)cc1 | - | 6.25 µg/mL | - | inhibition | H37Rv | 0% |
| CC1OC(OC2C(Oc3cc(O)c4c(c3)OC(c3ccc(O)cc3)CC4=O)OC(CO)C(O)C2O)C(O)C(O)C1O | BACTEC | 12.5 µg/mL | - | inhibition | H37Rv | -16% |
| CCOCNc1onc(-c2ccc([N+](=O)[O-])o2)c1C#N | - | - | - | MIC | - | 3 µg/mL |
| O=C(NC(=S)c1ccco1)NS(=O)(=O)c1ccc(Cl)cc1 | resazurin | - | - | MIC bound | H37Rv | >6.25 µg/mL |
| O=C1Nc2ccccc2[C@]12N1CSC[C@H]1[C@H](c1ccc(Cl)cc1)[C@]21Cc2ccccc2C1=O | agar | - | - | MIC99 | H37Rv | 52.9 µM |
| O=C1C(O)=C(c2ccc(Br)cc2)C(=O)C(O)=C1c1ccc(Br)cc1 | BACTEC | 12.5 µg/mL | - | inhibition | H37Rv | 9% |
| O=C(NCc1ccc(N2CCN(S(=O)(=O)C(F)(F)F)C=N2)c(F)c1)c1c(C(F)F)nc2ccc(Cl)cn12 | GFP | - | - | EC50 | - | 0.0041 µM |
| OC[C@@H](O)[C@@H](O)[C@H](O)[C@@H](O)c1nc2ccccc2[nH]1 | BACTEC | - | - | MIC bound | H37Rv | >6.25 µg/mL |
| CN[C@@H]1[C@H](O[C@H]2[C@H](O[C@H]3[C@H](O)[C@@H](O)[C@H](N=C(N)N)[C@@H](O)[C@@H]3N=C(N)N)O[C@@H](C)[C@]2(O)C=O)O[C@@H](CO)[C@H](O)[C@H]1O | turbidity | - | Spiroindene-resistant | MIC | TB333 | 1 µM |
| O=C1c2ccccc2C(O)(C(=O)O)C1(O)CC=C(Cl)Cl | BACTEC | - | - | MIC bound | H37Rv | >12.5 µg/mL |
| COc1ccc(NC(=O)CSc2nnc(-c3ccc4ncccc4c3)o2)cc1 | agar | - | - | MIC | H37Rv | 25 µg/mL |

The first 6 rows once more:

C1=C(c2nc(-c3cccnc3)no2)c2ccccc2C12CCN(CC1CCCO1)CC2 ; read by: resazurin ; changes: Rifampicin-resistant ; endpoint: MIC ; strain or isolate: 19000 ; value: 1.56 µM
O=C1Nc2ccc([N+](=O)[O-])cc2[C@]12N1CSC[C@H]1[C@H](c1ccc(F)cc1)[C@]21Cc2ccccc2C1=O ; read by: agar ; endpoint: MIC99 ; strain or isolate: H37Rv ; value: 3.1 µM
COc1cc(Cc2cnc(N)nc2N)cc(OC)c1OCc1ccc(S(=O)(=O)c2ccc(N)cc2)cc1 ; endpoint: MIC ; strain or isolate: H37Rv ; value: >61.4 µM
CCOC(=O)C1=C(NC)OC/C1=N/NC(=O)c1ccccc1O ; read by: BACTEC ; endpoint: MIC bound ; strain or isolate: H37Rv ; value: >12.5 µg/mL
O=C(NCc1cnc(N2CCN(S(=O)(=O)C(F)(F)F)C=N2)c(F)c1)c1c(C(F)(F)F)nc2ncc(Cl)cn12 ; read by: GFP ; endpoint: EC50 ; value: 0.5 µM
COc1ccc(/C=N/Nc2ccccn2)cc1OC ; read by: BACTEC ; tested at: 12.5 µg/mL ; endpoint: inhibition ; strain or isolate: H37Rv ; value: 14%